# Assay results reported in patent EP4574169A1.
# How the values were obtained:
# ACE2 [1] = biological target: ACE2
# ACE2 [2] = assay: ACE2 binding detection ELISA (ACE2 on solid phase, detection with anti-spikeRBD antibody); concentrated supernatant of virus-infected Vero cells
# ACE2 [3] = assay: ratio of ACE2 binding ELISA to Spike RBD detection ELISA; concentrated supernatant of virus-infected Vero cells
substance,measurement,setting,value
"Cov2S1Fc (polypeptide D: wild-type leader sequence, subunit 1 (S1) of the spike protein, Fc region of human IgG1 at the C-terminus) (Fc fusion)",ACE2 bind,ACE2 [1],1390 ng/mL
same,ACE2 bind/ Spike RBD,ACE2 [1],0.334
same,ACE2 bind,ACE2 [2],5.6 ng/mL
same,ACE2 bind/ Spike RBD,ACE2 [3],2.07

# Read-outs that look alike come from different tables or passages of the source.
